The entries are a selection whose mix differs from that of the whole data set. Active and inactive are the calls of the source. Rule as the data show it: active = inhibition above about 25%; inactive = the rest.
What follows are compounds tested against Major prion protein (Homo sapiens) (UniProt P04156) (assay: confirmation of inhibitors of cell surface human prion protein, confirmation, cell-based, TR-FRET (AID 743200)). Settings: cell surface PrPC level, at 13.8 µM, active compounds read high.
For Cc1ccc2nc3c(c(C)c2c1)CC(C(Cl)Cl)S3 (configuration not stated), the inhibition was active: 37.2%.
With Cc1c2c(nc3ccccc13)SC(C(Cl)Cl)C2 (configuration not stated) the inhibition was active: 44.7%.

Reference: PubChem BioAssay AID743200 (The Scripps Research Institute Molecular Screening Center, 2013)
